Test results taken from PubChem BioAssay AID1963822 (ICCB-Longwood Screening Facility, Harvard Medical School, 2024).
This is a selection; strong and weak results do not stand in their true shares. Active and inactive are the calls of the source. The rule behind the calls is not given here.

Assay: growth inhibitors of anaerobic choline-fed gram-negatives, minimal medium, absorbance (AID 1963822)
Settings: Gram-negative bacterium anaerobic choline minimal medium, hits give low values
For `Cc1cc(C)c2c(C)c(C(=O)NCC3(N4CCOCC4)CCCCC3)oc2c1`, the z-score was inactive: 0.08.
In the case of `Cc1c(C(=O)NCC2(N3CCOCC3)CCCCC2)oc2cc(Br)ccc12`, the z-score is reported as inactive: -0.91.
In the case of `Cc1c(C(=O)NCC2(N3CCOCC3)CCCCC2)oc2ccc(Cl)cc12`, the z-score is reported as inactive: -0.04.
With `Cc1c(C(=O)NCC2(N3CCOCC3)CCCCC2)oc2ccc(Br)cc12` the z-score was inactive: -0.57.
In the case of `Cc1c(C(=O)NCC2(N(C)C)CCCCC2)oc2ccc(Br)cc12`, the z-score is reported as inactive: 0.54.
With `Cc1ccc2c(C)c(C(=O)NCC3(N(C)C)CCCCC3)oc2c1C` the z-score was inactive: 0.16.
In the case of `Cc1c(C(=O)NCC2(N3CCOCC3)CCCCC2)oc2ccc(F)cc12`, the z-score is reported as inactive: 0.11.
In the case of `Cc1c(C(=O)NCC2(N(C)C)CCCCC2)oc2cc(Br)ccc12`, the z-score is reported as inactive: 0.77.
In the case of `Cc1c(C(=O)NCC2(N(C)C)CCCCC2)oc2ccc(Cl)cc12`, the z-score is reported as inactive: 0.44.
